Results on 1 protein are retold here after PMC7549809, “Full-length three-dimensional structure of the influenza A virus M1 protein and its organization into a matrix layer” (PLoS Biology, 2020).

This data set concerns the molecule itself. Kind of data set: cross-linking.

B1: M1-V97K (full-length PR8 M1 with V97K) (natural protein)
chain: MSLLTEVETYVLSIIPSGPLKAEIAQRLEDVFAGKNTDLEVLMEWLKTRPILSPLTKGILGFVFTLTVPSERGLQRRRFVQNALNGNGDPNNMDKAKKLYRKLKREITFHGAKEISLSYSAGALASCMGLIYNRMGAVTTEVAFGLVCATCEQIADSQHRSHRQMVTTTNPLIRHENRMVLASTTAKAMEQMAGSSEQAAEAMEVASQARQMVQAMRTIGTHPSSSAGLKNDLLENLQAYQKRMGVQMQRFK
B1: the binding result is on record as “binds”.
